Results of unrelated studies side by side (data: NIAID ChemDB).

Common to all: tests in culture; agent: HIV-1; cells: MT-2; endpoint: EC90

ECn: concentration that inhibits the pathogen or its effect by n%. Two numbers with a dash give a range or band. An empty or dashed field is not shown. Neighbouring rows are from separate reports.

compound,strain or isolate,mutations,read by,conditions,result
Nc1n[nH]c2ccc(CN3C(=O)N(Cc4ccc5ccccc5c4)[C@H](Cc4ccccc4)[C@H](O)[C@@H](O)[C@H]3Cc3ccccc3)cc12,RF,,,,0.023 µM
CC(C)(C)NC(=O)[C@@H]1CCCN1C(=O)[C@@H](O)[C@H](Cc1ccccc1)NC(=O)[C@H](CC(N)=O)NC(=O)COc1cccc2ccccc12,RF,,p24,,0.36 µM
CC[C@@H]1[C@H](O)[C@@H](O)[C@@H](Cc2ccccc2)N(Cc2cccc(C(=O)Nc3nc4ccccc4[nH]3)c2)C(=O)N1Cc1cccc(C(=O)Nc2nc3ccccc3[nH]2)c1,RF,,,3 d,0.026 µM
O=C1N(Cc2ccc(OCc3ccccc3)cc2)[C@H](Cc2ccccc2)[C@H](O)[C@@H](O)[C@@H](Cc2ccccc2)N1Cc1ccc(OCc2ccccc2)cc1,RF,,hybridisation,,>70 µM
Nc1ccn([C@H]2CC[C@@H](CO)O2)c(=O)n1,RF,,,,0.1–0.3 µM
CC(C)c1ccc(C[C@@H]2[C@H](O)[C@@H](O)[C@@H](Cc3ccc(C(C)C)cc3)N(Cc3ccccc3)C(=O)N2Cc2ccccc2)cc1,RF,,hybridisation,,>10 µM
CC(=O)N[C@H](C(=O)N[C@@H](Cc1ccccc1)[C@@H](O)CN(CC1CCCCC1)NC(=O)[C@@H](NC(C)=O)C(C)C)C(C)C,LAV,,RT activity,,1 µM
CC(C)[C@H](NC(=O)N(C)Cc1ccccn1)C(=O)N[C@@H](Cc1ccccc1)[C@H](O)C(=O)N1[C@H](C(=O)NC(C)(C)C)C[C@@H]2CCCC[C@@H]21,RF,,p24,,2.2 µM
CC(C)[C@H](NC(=O)OCc1ccccc1)C(=O)N[C@@H](Cc1ccc(O)cc1)[C@@H](O)[C@H](O)[C@H](Cc1ccc(O)cc1)NC(=O)[C@@H](NC(=O)OCc1ccccc1)C(C)C,RF,,plaque count / virus yield,,0.4 µg/mL
CCCc1c([Se]c2ccccc2)n(COCc2ccccc2)c(=O)[nH]c1=O,Cat #3 strain,,p24,,0.143 µM
O=[P@]12O[C@@H]([C@@H](O)[C@@H](Cc3ccccc3)N1Cc1ccc3ccccc3c1)[C@@H](Cc1ccccc1)N2Cc1ccc2ccccc2c1,RF,,,,>80 µM
CC[C@H](C)[C@H](NC(=O)Cc1ccccn1)C(=O)N[C@@H](Cc1ccccc1)[C@@H](O)[C@H](O)[C@H](Cc1ccccc1)NC(=O)[C@@H](NC(=O)Cc1ccccn1)[C@@H](C)CC,RF,,,,0.55 µg/mL
COc1ccccc1C[C@@H]1[C@H](O)[C@@H](O)[C@@H](Cc2ccccc2OC)N(CC2CC2)C(=O)N1CC1CC1,RF,,hybridisation,,>10 µM
Cc1cn([C@H]2C[C@H](N=[N+]=[N-])[C@@H](CO)O2)c(=O)[nH]c1=O,IIIB,,p24,,0.0489 µg/mL
O=C1N(Cc2ccccc2)[C@H](CC2CCCCC2)[C@H](O)[C@@H](O)[C@@H](CC2CCCCC2)N1Cc1ccccc1,RF,,hybridisation,,>10 µM
O=C1N(Cc2cccc(C(=O)C(F)(F)F)c2)[C@H](Cc2ccccc2)[C@H](O)[C@@H](O)[C@@H](Cc2ccccc2)N1Cc1cccc(C(=O)C(F)(F)F)c1,RF,,,,33 µM
Nc1cccc(CN2C(=O)N(Cc3ccc4[nH]nc(-c5ccsc5)c4c3)[C@H](Cc3ccccc3)[C@H](O)[C@@H](O)[C@H]2Cc2ccccc2)c1,Ritonavir-resistant (PR M46I L63P A71V V82F I84V),PR-M46I L63P A71V V82F I84V,,,>5 µM
O=[P@]12OC([C@@H](O)[C@@H](Cc3ccccc3)N1Cc1ccc(CO)cc1)[C@@H](Cc1ccccc1)N2Cc1ccc(CO)cc1,RF,,,,0.154 µM
Nc1cccc(CN2C(=O)N(Cc3cccc(N)c3)[C@H](Cc3ccccc3)[C@H](O)[C@@H](O)[C@H]2Cc2ccccc2)c1,RF,,,,0.15 µM
C[C@H]1CN2CCC[C@H]3CCCCC[C@@H]4C(=O)[C@@H](C)CN5CCC[C@@H](CCCCC[C@H](C1=O)[C@@H]32)[C@H]45,MN,,p24,,86.8 µM
O=[P@]12O[C@@H]([C@@H](O)[C@@H](Cc3ccccc3)N1Cc1ccccc1)[C@@H](Cc1ccccc1)N2Cc1ccccc1,RF,,,,>95.3 µM
CC(C)CN(C[C@@H](O)[C@H](Cc1ccccc1)NC(=O)[C@@H](NC(=O)CNCc1cccc(F)c1)C(C)(C)C)S(=O)(=O)c1cccc(N)c1,RF,,virus yield,,0.0041 µM
O=c1[nH]cnc2c1ncn2[C@H]1CC[C@@H](CO)O1,,,,,18 µM
CC(C)C[C@@H]1[C@H](O)[C@@H](O)[C@@H](CC(C)C)N(Cc2cccc(C(=O)Nc3nc4ccccc4[nH]3)c2)C(=O)N1Cc1cccc(C(=O)Nc2nc3ccccc3[nH]2)c1,RF,,,3 d,0.059 µM
O=C1N[C@H](Cc2ccccc2)[C@H](O)CN[C@H]1Cc1ccccc1,IIIB,,XTT,,≤10 µg/mL
CC[C@H](C)[C@H](NC(=O)Cc1ccccn1)C(=O)N[C@@H](Cc1ccccc1)[C@@H](O)[C@H](O)[C@H](Cc1ccccc1)NC(=O)[C@@H](NC(=O)Cc1ccccn1)[C@@H](C)CC,RF,,plaque count / virus yield,,0.9 µg/mL
CC(C)(C)NC(=O)[C@@H]1CN(Cc2cccnc2)CCN1C[C@@H](O)C[C@@H](Cc1ccccc1)C(=O)N[C@H]1c2ccccc2C[C@H]1O,MN,,RT activity,,0.032 µM
CC(C)(C)NC(=O)[C@@H]1[C@H]2CCCC[C@H]2CN1C(=O)[C@@H](O)[C@H](Cc1ccccc1)NC(=O)[C@H](CC(N)=O)NC(=O)COc1cccc2ccccc12,RF,,p24,,0.144 µM
O=C1N(Cc2ccccc2)[C@H](CCc2ccccc2)[C@H](O)[C@@H](O)[C@@H](CCc2ccccc2)N1Cc1ccccc1,RF,,hybridisation,,>10 µM
O=C1N(Cc2ccc(CO)cc2)[C@H](Cc2ccccc2)[C@H](O)[C@@H](O)[C@@H](Cc2ccccc2)N1Cc1ccc(CO)cc1,RF,,plaque count / virus yield,,0.07 µg/mL
CC(C)CN(C[C@@H](O)[C@H](Cc1ccccc1)NC(=O)[C@@H](NC(=O)CNCc1cccc(F)c1)C(C)(C)C)S(=O)(=O)c1ccc(N)cc1,RF,,,,0.0057 µM
COC(=O)c1ccc(CN2C(=O)N(Cc3ccc(C(=O)OC)cc3)[C@H](Cc3ccccc3)[C@H](O)[C@H]2CCc2ccccc2)cc1,RF,,,,>5 µM
CC(C)[C@H](NC(=O)OCc1ccccc1)C(=O)N[C@@H](Cc1ccccc1)[C@@H](O)[C@H](O)[C@H](Cc1ccccc1)NC(=O)[C@@H](NC(=O)OCc1ccccc1)C(C)C,RF,,hybridisation,,0.054 µM
COCCNC(=O)[C@@H](NC(=O)[C@H](Cc1ccc(OC)c(OC)c1OC)C[C@H](O)[C@H](Cc1ccccc1)NC(=O)OC(C)(C)C)C(C)C,MN,,RT activity,,0.0097 µM
CC(C)(C)NC(=O)[C@@H]1C[C@@H]2CCCC[C@@H]2N1C(=O)[C@@H](O)[C@H](Cc1ccccc1)NC(=O)[C@H](CC(N)=O)NC(=O)COc1ccccc1,RF,,p24,,0.42 µM
O=C(Nc1nc2ccccc2[nH]1)c1cccc(CN2C(=O)N(Cc3cccc(C(=O)Nc4nc5ccccc5[nH]4)c3)[C@H](Cc3ccc(O)cc3)[C@H](O)[C@@H](O)[C@H]2Cc2ccc(O)cc2)c1,RF,,,3 d,0.035 µM
CC(C)(C)NC(=O)[C@@H]1C[C@@H]2CCC[C@@H]2N1C(=O)[C@@H](O)[C@H](Cc1ccccc1)NC(=O)[C@H](CC(N)=O)NC(=O)OCc1ccccc1,RF,,p24,,0.151 µM
O=C1N(Cc2ccc3[nH]c(=O)[nH]c3c2)[C@H](Cc2ccccc2)[C@H](O)[C@@H](O)[C@@H](Cc2ccccc2)N1Cc1ccc2[nH]c(=O)[nH]c2c1,RF,,hybridisation,,>65 µM
O=C(Nc1cc(S(=O)(=O)O)cc2cc(S(=O)(=O)O)c(N=Nc3ccc(N=Nc4c(S(=O)(=O)O)cc5cc(S(=O)(=O)O)cc(NC(=O)c6cccc(Cl)c6Cl)c5c4O)cc3)c(O)c12)c1ccc(Cl)cc1Cl,RF,,,,0.8–1 µg/mL
CC[C@@H]1[C@H](O)[C@@H](O)[C@@H](CC)N(Cc2cccc(C(=O)Nc3nc4ccccc4[nH]3)c2)C(=O)N1Cc1cccc(C(=O)Nc2nc3ccccc3[nH]2)c1,RF,,,3 d,0.57 µM
CC(=O)N[C@H](C(=O)N[C@@H](Cc1ccc(OCc2ccccc2)cc1)[C@@H](O)[C@H](O)[C@H](Cc1ccc(OCc2ccccc2)cc1)NC(=O)[C@@H](NC(C)=O)C(C)C)C(C)C,RF,,plaque count / virus yield,,0.3 µg/mL
C[C@@H]1CN2CCC[C@@H]3CCCCC[C@@H]4C(=O)[C@@H](C)CN5CCC[C@@H](CCCCC[C@@H](C1=O)[C@H]32)[C@H]45,MN,,p24,,106.6 µM
O=C1N(Cc2cccc(Br)c2)[C@H]2[C@H](CS(=O)(=O)[C@H]2CCCCCO)N1Cc1cccc(Br)c1,RF,,,,80 µM

Repeating the final 5 entries:

compound,strain or isolate,mutations,read by,conditions,result
O=C(Nc1cc(S(=O)(=O)O)cc2cc(S(=O)(=O)O)c(N=Nc3ccc(N=Nc4c(S(=O)(=O)O)cc5cc(S(=O)(=O)O)cc(NC(=O)c6cccc(Cl)c6Cl)c5c4O)cc3)c(O)c12)c1ccc(Cl)cc1Cl,RF,,,,0.8–1 µg/mL
CC[C@@H]1[C@H](O)[C@@H](O)[C@@H](CC)N(Cc2cccc(C(=O)Nc3nc4ccccc4[nH]3)c2)C(=O)N1Cc1cccc(C(=O)Nc2nc3ccccc3[nH]2)c1,RF,,,3 d,0.57 µM
CC(=O)N[C@H](C(=O)N[C@@H](Cc1ccc(OCc2ccccc2)cc1)[C@@H](O)[C@H](O)[C@H](Cc1ccc(OCc2ccccc2)cc1)NC(=O)[C@@H](NC(C)=O)C(C)C)C(C)C,RF,,plaque count / virus yield,,0.3 µg/mL
C[C@@H]1CN2CCC[C@@H]3CCCCC[C@@H]4C(=O)[C@@H](C)CN5CCC[C@@H](CCCCC[C@@H](C1=O)[C@H]32)[C@H]45,MN,,p24,,106.6 µM
O=C1N(Cc2cccc(Br)c2)[C@H]2[C@H](CS(=O)(=O)[C@H]2CCCCCO)N1Cc1cccc(Br)c1,RF,,,,80 µM